Experimental data as given in publication PMC4125235.

Target: T1, IRF4 (UniProt Q64287)
T1 sequence (looked up, limits assumed): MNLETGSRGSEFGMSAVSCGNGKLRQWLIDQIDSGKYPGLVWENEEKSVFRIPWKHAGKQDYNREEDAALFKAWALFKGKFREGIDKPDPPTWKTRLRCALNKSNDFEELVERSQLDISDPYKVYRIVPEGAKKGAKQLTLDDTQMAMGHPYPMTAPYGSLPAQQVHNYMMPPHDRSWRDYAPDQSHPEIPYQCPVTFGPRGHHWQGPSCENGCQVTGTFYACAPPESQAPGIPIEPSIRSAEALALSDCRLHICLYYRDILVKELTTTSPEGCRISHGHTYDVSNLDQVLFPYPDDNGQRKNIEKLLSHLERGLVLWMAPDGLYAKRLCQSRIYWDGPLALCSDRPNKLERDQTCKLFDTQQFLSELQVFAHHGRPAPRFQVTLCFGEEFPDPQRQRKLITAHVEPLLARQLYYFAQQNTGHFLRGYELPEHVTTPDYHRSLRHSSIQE
Assay: EMSA supershift
Settings: anti-IRF4 supershift, isotype control anti-pSTAT1, WT self-competition at 2x and 20x; protein in an extract; label: 32P (unlabeled when used as competitor)

Question: Does “TTGGTGGTTTCACTTCTAAACA (double strand) [M1 promoter IRF4 site probe (WT)]” bind?
Answer: Result: binds

For at least one entry, the source does not settle the construct or the ends of the probe. Where cells or extracts were used, other partners may take part. Protein sequences can lack the tags named with them.
